Active and inactive are the calls of the source. No cut-off for these calls is given here.
Key:
[1] = test system: Phomopsis asparagi; assay: Growth inhibition of Phomopsis asparagi at 50 ppm relative to control
[2] = test system: Botryosphaeria berengeriana; assay: Growth inhibition of Botryosphaeria berengeriana at 50 ppm relative to control

Structure (SMILES)	growth inhibition (GI) [1]	growth inhibition (GI) [2]
CCOP(=S)(NNC(=S)N[C@@H]1O[C@H](COC(C)=O)[C@H](OC(C)=O)[C@H](OC(C)=O)[C@H]1OC(C)=O)OCC	Active	Active
CCOP(=S)(NNC(=S)N[C@@H]1O[C@H](COC(C)=O)[C@@H](O[C@H]2O[C@H](CC(C)=O)[C@@H](OC(C)=O)[C@H](OC(C)=O)[C@H]2OC(C)=O)[C@H](OC(C)=O)[C@H]1OC(C)=O)OCC	Active	Active
CCOP(=S)(NNC(=S)N[C@@H]1OC[C@@H](OC(C)=O)[C@H](OC(C)=O)[C@H]1OC(C)=O)c1ccccc1 (some centres not stated)	Active	Active
COP(=S)(NNC(=S)N[C@@H]1OC[C@@H](OC(C)=O)[C@H](OC(C)=O)[C@H]1OC(C)=O)c1ccccc1 (some centres not stated)	Active	Active
COP(=S)(NNC(=S)N[C@@H]1O[C@H](COC(C)=O)[C@H](OC(C)=O)[C@H](OC(C)=O)[C@H]1OC(C)=O)c1ccccc1 (some centres not stated)	Active	Active
CCCOP(=S)(NNC(=S)N[C@@H]1O[C@H](COC(C)=O)[C@@H](OC(C)=O)[C@H](OC(C)=O)[C@H]1OC(C)=O)c1ccccc1 (some centres not stated)	Active	Active
CCOP(=S)(NNC(=S)N[C@@H]1O[C@H](COC(C)=O)[C@@H](OC(C)=O)[C@H](OC(C)=O)[C@H]1OC(C)=O)OCC	Active	Active
COP(=S)(NNC(=S)N[C@@H]1OC[C@@H](OC(C)=O)[C@H](OC(C)=O)[C@H]1OC(C)=O)OC	Active	Active
CCOP(=S)(NNC(=S)N[C@@H]1O[C@H](COC(C)=O)[C@@H](O[C@@H]2O[C@H](CC(C)=O)[C@H](OC(C)=O)[C@H](OC(C)=O)[C@H]2OC(C)=O)[C@H](OC(C)=O)[C@H]1OC(C)=O)OCC	Active	Active
COP(=S)(NNC(=S)N[C@@H]1O[C@H](COC(C)=O)[C@@H](OC(C)=O)[C@H](OC(C)=O)[C@H]1OC(C)=O)c1ccccc1 (some centres not stated)	Active	Active
CCOP(=S)(NNC(=S)N[C@@H]1OC[C@@H](OC(C)=O)[C@H](OC(C)=O)[C@H]1OC(C)=O)OCC	Active	Active
